A mixed list of measured activities; the numbers were collected in NIAID ChemDB.

Shared fields: cytotoxicity tests; cells: HeLa; endpoint: CC50

CCn: concentration that lowers growth or viability of the cells by n%. An empty or dashed field is not shown. Conditions beyond the fields shown may differ between rows.

smiles | read by | value
C[C@@]12CC[C@]3(C1)C(C[C@H]2O)C[C@@H](OC(=O)c1ccccc1)[C@H]1[C@](C)(C(=O)O)CCC[C@@]13C | - | 27.3 µM
C[C@]12CCC(=O)C=C1CC[C@@H]1[C@@H]2C(=O)C[C@@]2(C)[C@H]1CC[C@]2(O)C(=O)CO | - | >10 µg/mL
C[C@@]12CC[C@]3(C1)C(CC2=O)C[C@@H](O)[C@H]1[C@](C)(C(=O)O)CCC[C@@]13C | - | 898 µM
Nc1ncnc2c1ccn2[C@@H]1O[C@H](CO)[C@H](O)[C@H]1O | trypan blue | 4 µg/mL
CC(=O)O[C@H]1CC2C[C@@H](OC(=O)c3ccccc3)[C@H]3[C@](C)(C(=O)O)CCC[C@]3(C)[C@]23CC[C@]1(C)C3 | - | 45 µM
Cc1cccc(OCCNC(=O)c2ccc(O)cc2Cl)c1 | - | 119.4 µM
Nc1ncnc2c1ncn2C[C@@H](CO)OCP(=O)(O)O | trypan blue | >125 µg/mL
O=C(NCCOc1ccc2ccccc2c1)c1ccccc1O | - | >167.2 µM
CC[C@]12CCCN3CCc4c(n(c5ccccc45)[C@@](O)(C(=O)OC)C1)[C@@H]32 | - | >200 µg/mL
COC(=O)[C@]1(C)CCC[C@@]2(C)[C@H]1C(=O)CC1CC(=O)[C@]3(C)CC[C@]12C3 | - | 202 µM
Nc1ncnc2c1ncn2CC(O)C(=O)O | trypan blue | >500 µg/mL
CC(=O)O[C@@H]1CC2C[C@@H](OC(=O)c3ccccc3)[C@H]3[C@](C)(C(=O)O)CCC[C@]3(C)[C@]23CC[C@]1(C)C3 | - | 69 µM
C/C=C\C(C)=C\[C@H](C)C(=O)C[C@H](O)CC1CC(=O)NC(=O)C1 | - | 195 µM
Cc1cccc(OCCNC(=O)c2ccc(Cl)cc2Cl)c1 | - | 124.6 µM
CO[C@H]1[C@@H](OC(=O)/C=C/C=C/C=C/C=C/C(=O)O)CC[C@@]2(CO2)[C@@H]1[C@@]1(C)O[C@@H]1CC=C(C)C | - | 20 µg/mL
Cc1cccc(OCCNC(=O)c2cccc(Cl)c2)c1 | - | 132.9 µM
C[C@]12C[C@H](O)[C@H]3[C@@H](CCC4=CC(=O)CC[C@@]43C)[C@@H]1CC[C@@H]2C(=O)CO | - | >10 µg/mL
Nc1cc2[nH]cnc2c(=O)[nH]1 | trypan blue | >200 µg/mL

3 of the rows above, restated:

Nc1ncnc2c1ncn2C[C@@H](CO)OCP(=O)(O)O ; read by: trypan blue ; value: >125 µg/mL
Nc1ncnc2c1ncn2CC(O)C(=O)O ; read by: trypan blue ; value: >500 µg/mL
Nc1cc2[nH]cnc2c(=O)[nH]1 ; read by: trypan blue ; value: >200 µg/mL